Measured values from several laboratories, pooled; numbers as filed in NIAID ChemDB.

All rows: growth or infection tests; species: HIV-1

An empty or dashed field is not shown. Two numbers with a dash give a range or band. Conditions beyond the fields shown may differ between rows. ECn is the concentration giving n% inhibition of infection, replication or growth.

structure | measure | strain or isolate | method | mutations | cells | value
CCOCn1c(Cc2ccccc2)c(C(C)C)c(=O)[nH]c1=O | EC50 | IIIB | syncytia |  | CEM | 0.002 µM
CCCOC(=O)c1cc(NC(=O)C2=C(C)OCCS2)ccc1Cl | EC50 | TSAO-resistant (RT E138K) | syncytia | RT-E138K | CEM | 4 µg/mL
CC(=O)Oc1cccc(C(=O)N2CCN(C(=O)C(=O)c3c[nH]c4cccc(Cl)c34)CC2)c1 | EC50 |  | luciferase |  | HeLa + HELA CD4+/CCR5 | <10 µM
Cc1nc2c(c(C)c(C)n2CC(C)C)c(-c2ccc(Cl)cc2)c1C(OC(C)(C)C)C(=O)O | EC50 | IIIB | MTT |  | MT-4 | 0.107 µM
Nc1ccn([C@@H]2C=C(F)[C@H](CO)O2)c(=O)n1 | EC50 | BRU-184V | PCR |  | PBMC | <68.4 µM
O=C(C(=O)N1CCN(C(=O)c2ccccc2SCc2ccccc2)CC1)c1c[nH]c2cccc(Cl)c12 | EC50 |  | luciferase |  | HeLa + HELA CD4+/CCR5 | <10 µM
CC1=C(C(=O)Nc2ccc(Cl)c(C(=O)OC3CCCCC3C)c2)SCCO1 | EC50 | IIIB | syncytia |  | CEM | 0.1 µg/mL
N#CC(=C1CCN(C(=O)C(=O)c2c[nH]c3c(NC(=O)NCCCC(=O)O)cccc23)CC1)c1ccccc1 | EC50 |  | luciferase / reporter gene |  | HeLa | <1 µM
CCCC1CN(C(=O)c2ccccc2)CCN1C(=O)C(=O)c1c[nH]c2c(C(=O)OC)cccc12 | EC50 |  | luciferase |  | HeLa + HELA CD4+/CCR5 | <10 µM
Cc1ncn(Nc2cccc(Cl)c2)c1-c1ccccc1 | EC50 | IIIB | cytopathic effect / MTT |  | MT-4 | 1.59 µM
CCN1c2ncc(CCOc3ccc(C(=O)O)c4c3CCN(S(C)(=O)=O)C4)cc2C(=O)N(C)c2cccnc21 | EC50 | WT | p24 |  | C8166 | <0.1 µM
COC(=O)Oc1ccc(NC(=O)C2=C(C)OCCS2)cc1C(=O)OC(C)C | EC50 | TIBO-resistant (RT L100I) | syncytia | RT-L100I | CEM | >10 µg/mL
CCN1c2ncc(CCOc3ccc(/C=C(\C)C(=O)O)c4ccccc34)cc2C(=O)N(C)c2ccc(Cl)nc21 | EC50 |  | p24 | RT-K103N Y181C | C8166 | <0.1 µM
CCOCn1c(Sc2ccccc2)c(CC)c(=O)[nH]c1=O | EC50 | IIIB | syncytia | RT-Y188H | CEM | >30 µM
CC1=C(C(=O)Nc2cc(Cl)cc(C(=O)OC(C)C)c2)SCCO1 | EC50 | TIBO-resistant (RT L100I) | syncytia | RT-L100I | CEM | 5 µg/mL
CCN1c2ncc(CCOc3ccc(S(=O)(=O)NCC(=O)O)c4ccccc34)cc2C(=O)N(C)c2cccnc21 | EC50 | WT | p24 |  | C8166 | 0.1–1 µM
CCCCN1C(=O)N(Cc2ccc3[nH]nc(N)c3c2)[C@H](Cc2ccccc2)[C@H](O)[C@@H](O)[C@H]1Cc1ccccc1 | EC50 | HXB2 |  |  |  | <0.069 µM
Cc1nc2c(c(C)c(C)n2Cc2cccc(Cl)c2)c(-c2ccc(Cl)cc2)c1C(OC(C)(C)C)C(=O)O | EC50 | IIIB | MTT |  | MT-4 | 0.154 µM
COc1cccc(Nn2c(-c3ccccc3)c(C)[nH]c2=S)c1 | EC50 | IIIB | cytopathic effect / MTT |  | MT-4 | 4.78 µM
CC(C)c1c(Sc2ccccc2)n(COCc2ccccc2)c(=O)[nH]c1=O | EC50 | IIIB | syncytia | Nevirapine resistant (RT Y181C) | CEM | 0.25 µM
CN(C)C(=O)C(=O)N1CCn2c(nc(C(=O)NCc3ccc(F)cc3)c(O)c2=O)C(N(C)C(=O)C(=O)N(C)C)C1 | EC95 |  | p24 |  | MT-4 | <1 µM
CCOC(=O)c1cc(NC(=O)C2=C(C)OCCS2)ccc1Cl | EC50 | Nevirapine-resistant (RT V106A) | syncytia | RT-V106A | CEM | >10 µg/mL
COC(=O)CCC(=O)Nc1cccc2c(C(=O)C(=O)N3CCN(C(=O)c4ccccc4)C[C@H]3C)c[nH]c12 | EC50 |  | luciferase / reporter gene |  | HeLa | <1 µM
Cc1nc2ccccc2c(-c2cc(F)c3c(c2C)CCCO3)c1[C@H](OC(C)(C)C)C(=O)O | EC50 | NL4-3 | luminescence | E170K | MT-4 | 0.0099 µM
CN(C)C(=O)C(=O)N(C)C1CN(S(C)(=O)=O)CCn2c1nc(C(=O)NCc1ccc(F)cc1)c(O)c2=O | EC50 |  | p24 |  | MT-4 | <1 µM
CC1=C(C(=O)Nc2ccc(Cl)c(C(=O)OCC3CCC3)c2)SCCO1 | EC50 | TIBO-resistant (RT L100I) | syncytia | RT-L100I | CEM | 1.9 µg/mL
COCCn1c(C)c(C)c2c(-c3ccc(Cl)cc3)c([C@H](OC(C)(C)C)C(=O)O)c(C)nc21 | EC50 | IIIB | MTT |  | MT-4 | 0.00631 µM
COC(=O)c1c(C)[nH]c(=S)n1Nc1cccc(Cl)c1 | EC50 | NL4-3 | cytopathic effect / MTT |  | MT-4 | >190 µM
CCN1CCn2c(nc(C(=O)NCc3ccc(F)c(C)c3)c(O)c2=O)C(N(C)C(=O)C(=O)N(C)C)C1 | EC95 |  | p24 |  | MT-4 | <1 µM
C[C@@H]1CN(C(=O)c2ccccc2)CCN1C(=O)C(=O)c1c[nH]c2c(N3CCN(CCCl)C3=O)cccc12 | EC50 |  | luciferase / reporter gene |  | HeLa | <1 µM
O=C(C(=O)N1CCN(C(=O)c2ccccc2)CC1CO)c1c[nH]c2cccc(F)c12 | EC50 |  | luciferase |  | HeLa + HELA CD4+/CCR5 | <10 µM
CC(=O)N(Cc1ccccc1)C1CN(C)CCn2c1nc(C(=O)NCc1ccc(F)cc1)c(O)c2=O | EC50 |  | p24 |  | MT-4 | <1 µM
CCc1c(Sc2cc(C)cc(C)c2)n(COCc2ccccc2)c(=S)[nH]c1=O | EC50 | IIIB | syncytia |  | CEM | 0.006 µM
CSc1ccccc1CNC(=O)c1nc2n(c(=O)c1O)CN(C)C2(C)C | EC50 |  | p24 |  | MT-4 | <50 µM
CCN1c2ncc(CCOc3ccc(C(C)C(=O)O)c4ccccc34)cc2C(=O)N(C)c2cccnc21 | EC50 |  | p24 | RT-K103N Y181C | C8166 | <0.1 µM
CCc1[nH]c(=S)n(Nc2cccc(C)c2)c1-c1ccccc1 | EC50 | SO561945 (RT K103N Y181C) | cytopathic effect / MTT | RT-K103N Y181C | MT-4 | ≥53.55 µM
CCCOC(=O)c1ccc(C)c(NC(=O)C2=C(C)OCCS2)c1 | EC50 | IIIB | syncytia |  | CEM | 1 µg/mL
CCOCn1c(Sc2ccccc2)c(C(C)C)c(=O)[nH]c1=O | EC50 | IIIB TIBO R82913-resistant (RT K103N) | syncytia | RT-K103N | CEM | 5 µM
Cc1nc2c(c(C)c(C)n2CCO)c(-c2ccc(Cl)cc2)c1C(OC(C)(C)C)C(=O)O | EC50 | IIIB | MTT |  | MT-4 | 0.0191 µM
CCc1c(Sc2cc(C)cc(C)c2)n(COCCO)c(=S)[nH]c1=O | EC50 | IIIB TIBO R82913-resistant (RT K103N) | syncytia | RT-K103N | CEM | 0.33 µM
CC1(C)CC=C(c2cn(-c3nccc(C(=O)NC4CCC(N5CC6CCC(C5)O6)CC4)n3)c3ccc(F)c([C@H](OC(C)(C)C)C(=O)O)c23)CC1 | EC50 | NL4-3 | luminescence | T124A | MT-4 | 0.0026 µM
CCn1c(C)c(C)c2c(-c3ccc(Cl)cc3)c([C@@H](OC(C)(C)C)C(=O)O)c(C)nc21 | EC50 | IIIB | MTT |  | MT-4 | 1.12 µM
CC(C)c1c(Sc2ccccc2)n(COCCO)c(=S)[nH]c1=O | EC50 | IIIB | syncytia | Nevirapine resistant (RT Y181C) | CEM | 10 µM
C[C@@H]1CN(C(=O)c2ccccc2)CCN1C(=O)C(=O)c1c[nH]c2c(NC(=O)Nc3cc(C(=O)O)cc(C(=O)O)c3)cccc12 | EC50 |  | luciferase / reporter gene |  | HeLa | <1 µM
CN1CCN(C(=O)c2ccc3c(=O)c4ccccc4[nH]c3c2)CC1 | EC50 | TIBO-resistant (RT L100I) | syncytia | RT-L100I | CEM | 0.45 µg/mL
O=C(C(=O)N1CCN(C(=O)C2=Nc3ccccc3C2)CC1)c1c[nH]c2cccc(F)c12 | EC50 |  | luciferase |  | HeLa + HELA CD4+/CCR5 | <10 µM
CCOCn1c(Sc2cc(C)cc(C)c2)c(CC)c(=O)[nH]c1=S | EC50 | IIIB (TIBO 82150) (RT-L100I) | syncytia | RT-L100I | CEM | 0.01 µM
O=C(C(=O)N1CCN(C(=O)c2ccoc2)CC1)c1c[nH]c2cccc(F)c12 | EC50 |  | luciferase |  | HeLa + HELA CD4+/CCR5 | <10 µM
CCCc1cc(=O)oc2c3c(c4c(c12)OC(C)(C)CC4)O[C@@H](C)[C@H](C)[C@@H]3O | EC50 | IIIB | cytopathic effect / XTT |  | MT-2 | 0.8 µM
Cn1nnc(CN2CCn3c(nc(C(=O)NCc4ccc(F)cc4)c(O)c3=O)C2(C)C)n1 | EC50 |  | p24 |  | MT-4 | <1 µM
CCOCn1c(Sc2ccccc2)c(CC)c(=O)[nH]c1=S | EC50 | IIIB | syncytia | RT-Y188H | CEM | >30 µM
CCCCCOC(=O)c1cc(NC(=O)C2=C(C)OCCS2)ccc1Cl | EC50 | TIBO-resistant (RT L100I) | syncytia | RT-L100I | CEM | 3.5 µg/mL
O=C(C(=O)N1CCN(C(=O)c2ccccc2)CC1)c1c[nH]c2cc(F)ccc12 | EC50 | BRU | RT activity |  | MT-2 | <10 µM

A second listing of 5 rows from above:

structure,measure,strain or isolate,method,mutations,cells,value
Cn1nnc(CN2CCn3c(nc(C(=O)NCc4ccc(F)cc4)c(O)c3=O)C2(C)C)n1,EC50,,p24,,MT-4,<1 µM
CCN1c2ncc(CCOc3ccc(C(=O)O)c4c3CCN(S(C)(=O)=O)C4)cc2C(=O)N(C)c2cccnc21,EC50,WT,p24,,C8166,<0.1 µM
CN1CCN(C(=O)c2ccc3c(=O)c4ccccc4[nH]c3c2)CC1,EC50,TIBO-resistant (RT L100I),syncytia,RT-L100I,CEM,0.45 µg/mL
O=C(C(=O)N1CCN(C(=O)c2ccccc2SCc2ccccc2)CC1)c1c[nH]c2cccc(Cl)c12,EC50,,luciferase,,HeLa + HELA CD4+/CCR5,<10 µM
CCOCn1c(Cc2ccccc2)c(C(C)C)c(=O)[nH]c1=O,EC50,IIIB,syncytia,,CEM,0.002 µM